Anti-infective test results gathered from many reports (values: NIAID ChemDB through PubChem).

Common to all: whole-cell or culture tests; species: Herpes simplex virus 1; method: cytopathic effect; read-out: EC50

An empty or dashed field is not shown. Conditions beyond the fields shown may differ between rows. ECn: concentration that inhibits the pathogen or its effect by n%.

compound	changes	strain or isolate	cell line	result
CC(Sc1ncnc2c1cnn2COCCO)C(N)=O		VWM1837 (TK-)	E6SM	>400 µg/mL
Nc1nc2c(ncn2COCCO)c(=O)[nH]1		KOS	PRK	0.2 µg/mL
O=c1[nH]c(=O)n(C2CC(CO)[C@H](O)C2)cc1I		McIntyre	PRK	0.1 µg/mL
O=c1[nH]c(=O)n([C@H]2C[C@H](O)[C@@H](CO)O2)cc1/C=C/Br	TK-deficient acyclovir-resistant	KOS	HEL	50 µM
Nc1ccn(CC[C@H](O)CCO)c(=O)n1		KOS	E6SM	>400 µg/mL
O=c1[nH]c(=O)n([C@H]2C[C@H](O)[C@@H](CO)O2)cc1/C=C/Br		KOS	BALB/3T3	0.007 µg/mL
N#Cc1cc([C@H]2C[C@H](O)[C@@H](CO)O2)c(F)cc1F		KOS	E6SM	>400 µg/mL
[N-]=[N+]=NCc1cn([C@H]2C[C@H](O)[C@@H](CO)O2)c(=O)[nH]c1=O		McIntyre	PRK	1 µg/mL
Nc1ncnc2c1ncn2[C@@H]1O[C@H](CO)[C@@H](O)[C@@H]1O		KOS	ESM	20 µg/mL
O=c1[nH]c(=O)n([C@@H]2C[C@H](CO)[C@@H](O)C2)cc1/C=C/Br		F	PRK	0.02 µg/mL
Cc1cn([C@@]2(C#N)C[C@H](O)[C@@H](CO)S2)c(=O)[nH]c1=O			HEL	20 µg/mL
Nc1ncnc2c1ncn2C[C@@H](CO)OCP(=O)(O)O		KOS	PRK	1 µg/mL
CC(C)NS(=O)(=O)c1ccccc1C(=O)NNC(=O)c1ccc(Cl)cc1		KOS	HEL	>100 µM
O=c1c2ncn(COCCO)c2nc2[nH]c(-c3ccc(F)cc3)cn12		F	HEL	>16 µg/mL
Nc1ncnc2c1ncn2[C@@H]1O[C@H](COP(=O)(O)O[C@@H]2[C@H](O)[C@@H](COP(=O)(O)OP(=O)(O)OC[C@@H]3OC(O)[C@H](O)[C@H](O)[C@H]3O)O[C@H]2n2cnc3c(N)ncnc32)[C@@H](O)[C@H]1O			E6SM	>200 µg/mL
OC[C@H]1O[C@H](c2cc(Br)c(F)cc2F)C[C@@H]1O		KOS/ACV-R	E6SM	>400 µg/mL
O=c1c2ncn(COC(CO)CO)c2nc2[nH]c(-c3ccc(C(F)(F)F)cc3)cn12		TK-	HEL	>80 µg/mL
OC[C@H]1O[C@@H](c2cc(Br)c(F)cc2F)C[C@@H]1O		F	E6SM	>400 µg/mL
O=c1[nH]c(=O)n([C@H]2C[C@H](O)[C@@H](CO)O2)cc1/C=C\Cl		F	PRK	0.7 µg/mL
O=c1[nH]c(=O)n([C@H]2C[C@@H](CO)[C@H](O)C2)cc1I		VMW1837 (TK-)	PRK	>400 µg/mL
Cc1c(-c2ccc(C(F)(F)F)cc2)[nH]c2nc3c(ncn3COCCO)c(=O)n12		KOS	HEL	9.6 µg/mL
OC[C@H]1O[C@@H](c2cc(/C=C/Br)c(F)cc2F)C[C@@H]1O		F	E6SM	>400 µg/mL
C/C(=N/Nc1nc(-c2ccc(Cl)cc2)cs1)c1ccc(NC(=O)CN2C(=O)c3ccccc3S2(=O)=O)cc1		KOS	HEL	>20 µM
O=Cc1cn([C@H]2C[C@H](O)[C@@H](CO)O2)c(=O)[nH]c1=O		KOS	HSF	0.4 µg/mL
CC1(CO)CCC(Cn2cnc3c(N)nc(N)nc32)C1(C)C		KOS	E6SM	150 µg/mL
Nc1ncnc2c1ncn2[C@@H]1O[C@H](COP(=O)([O-])OP(=O)([O-])OC[C@@H]2OC(O)[C@H](O)[C@H](O)[C@H]2O)[C@@H](O)[C@H]1O			E6SM	30 µg/mL
CC(Sc1ncnc2c1cnn2COCC(O)CO)C(N)=O		KOS	E6SM	>400 µg/mL
CC(C)NS(=O)(=O)c1ccccc1-c1n[nH]c(=S)o1		KOS	HEL	>100 µM
CCCc1cn([C@H]2C[C@H](O)[C@@H](CO)O2)c(=O)[nH]c1=O		McIntyre	PRK	1.9 µg/mL
O=c1[nH]c(=O)n([C@H]2C[C@H](O)[C@@H](CO)O2)cc1I		KOS	ESM	0.1 µg/mL
CC1(CO)CCC(Cn2nnc3c(Cl)nc(N)nc32)C1(C)C		TK-/B2006	E6SM	>400 µg/mL
Nc1nc(=O)c(/C=C/Br)cn1[C@H]1C[C@H](O)[C@@H](CO)O1		B2006 (TK-)	PRK	>400 µg/mL
CO[C@H](CO)[C@@H](O)CCn1cnc2c(=O)[nH]c(N)nc21		F	E6SM	>400 µg/mL
OC[C@H]1O[C@@H](c2cc(C#CI)c(F)cc2F)C[C@@H]1O		VMW1837 (TK-)	E6SM	>400 µg/mL
Nc1nc2c(ncn2COCCO)c(=O)[nH]1		F	HFF	0.5 µg/mL
C=Cc1cc([C@H]2C[C@H](O)[C@@H](CO)O2)c(F)cc1F		KOS ACV-R (TK-)	E6SM	>400 µg/mL
CC(C)NS(=O)(=O)c1ccccc1C(=O)N/N=C/c1ccc(F)cc1	TK-deficient acyclovir-resistant	KOS	HEL	>100 µM
CC(Sc1ncnc2c1cnn2CCCCO)C(N)=O		B2006 (TK-)	E6SM	>400 µg/mL
Cc1ccc(S(=O)(=O)NNC(=O)c2ccccc2S(=O)(=O)NC(C)C)cc1		KOS	HEL	>100 µM
Nc1nc(=O)n([C@H]2C[C@H](O)[C@@H](CO)O2)cc1/C=C/Br		McIntyre	Primary rabbit kidney cells	0.06 µg/mL
COc1nc(=O)n([C@H]2C[C@H](O)[C@@H](CO)O2)cc1/C=C/Cl		B2006 (TK-)	PRK	>200 µg/mL
O=c1[nH]c(=O)n([C@H]2C[C@H](O)[C@@H](COP(=O)(O)O)O2)cc1I		KOS	PRK	0.2 µg/mL
CCc1cn([C@H]2C[C@H](O)[C@@H](CO)O2)c(=O)[nH]c1=O		F	PRK	1.6 µg/mL
Cc1cc([C@H]2C[C@H](O)[C@@H](CO)O2)c(F)cc1F		McIntyre	E6SM	>400 µg/mL
Nc1nc(=O)n([C@@H]2O[C@H](CO)[C@@H](O)[C@@H]2F)cc1I		KOS	BALB/3T3	0.02 µg/mL
CO[C@H](CO)[C@@H](O)CCn1cnc2c(N)ncnc21		B2006 (TK-)	E6SM	>400 µg/mL
CC1(CO)CCC(Cn2nnc3c(N)nc(N)nc32)C1(C)C		KOS	E6SM	>400 µg/mL
O=C(CCl)NCc1cn([C@H]2C[C@H](O)[C@@H](CO)O2)c(=O)[nH]c1=O		KOS	HSF	150 µg/mL
Cc1cn(CC[C@H](O)CCO)c(=O)[nH]c1=O		B2006 (TK-)	E6SM	>400 µg/mL
O=c1c2ncn(COCCO)c2nc2[nH]c(-c3ccccc3)c(Cc3ccccc3)n12		KOS	HEL	>16 µg/mL
CSCc1cn([C@H]2C[C@H](O)[C@@H](CO)O2)c(=O)[nH]c1=O		VEX538	PRK	20 µg/mL
Nc1nc2c(ncn2COCCO)c(=O)[nH]1		KOS	HSF	0.1 µg/mL
CCc1cn([C@H]2C[C@H](O)[C@@H](CO)O2)c(N)nc1=O		B2006 (TK-)	PRK	>400 µg/mL
O=c1[nH]c(=O)n([C@@H]2C[C@H](CO)[C@@H](O)C2)cc1I		McIntyre	PRK	0.2 µg/mL
NC(=O)CSc1ncnc2c1cnn2CCCCO		VWM1837 (TK-)	E6SM	>400 µg/mL
O=c1[nH]c(=O)n([C@H]2C[C@H](O)[C@@H](COP(=O)([O-])OP(=O)([O-])OC[C@@H]3OC(O)[C@H](O)[C@H](O)[C@H]3O)O2)cc1I		F	PRK	0.4 µg/mL

A second listing of 5 rows from above:

compound,changes,strain or isolate,cell line,result
O=Cc1cn([C@H]2C[C@H](O)[C@@H](CO)O2)c(=O)[nH]c1=O,,KOS,HSF,0.4 µg/mL
OC[C@H]1O[C@H](c2cc(Br)c(F)cc2F)C[C@@H]1O,,KOS/ACV-R,E6SM,>400 µg/mL
Nc1ccn(CC[C@H](O)CCO)c(=O)n1,,KOS,E6SM,>400 µg/mL
OC[C@H]1O[C@@H](c2cc(Br)c(F)cc2F)C[C@@H]1O,,F,E6SM,>400 µg/mL
C/C(=N/Nc1nc(-c2ccc(Cl)cc2)cs1)c1ccc(NC(=O)CN2C(=O)c3ccccc3S2(=O)=O)cc1,,KOS,HEL,>20 µM